A mixed list of measured activities; the numbers were collected in NIAID ChemDB.

Common to all: enzyme or target tests

ICn: concentration for n% inhibition.

{"structure": "Nc1ccc(S(=O)(=O)Nc2cnc3ccccc3n2)cc1", "read-out": "IC50", "organism": "Pneumocystis carinii", "target": "DHPS", "value": "0.03 µM"}
{"structure": "COCON1C(=O)[C@H]([C@H](OS(C)(=O)=O)c2ccccc2)N(Cc2ccc(OC)cc2)[C@@H](CC(C)C)C1=O", "read-out": "IC50", "organism": "Influenza A virus", "target": "Transcriptase", "value": ">200 µM"}
{"structure": "Cc1ccc(C(=O)Nc2nnc(NCCCN3CCCC3=O)s2)cc1", "read-out": "IC50", "organism": "Human cytomegalovirus", "target": "Polymerase", "value": ">25 µM"}
{"structure": "Cc1cc(S(=O)(=O)Nc2cc(-c3ccc(F)cc3)sc2C(=O)O)c(C)cc1Cl", "read-out": "IC50", "organism": "Hepatitis C virus", "target": "NS3 ATPase", "value": "<5 µM"}
{"structure": "O=C1C=CN([C@@H]2O[C@H](CO)[C@@H](O)[C@H]2O)C(=O)C1", "read-out": "inhibition", "organism": "Simian rotavirus", "target": "RNA polymerase", "tested at": "500 µM", "value": "7%"}
{"structure": "O=C(CCN1C(=O)/C(=C/c2ccc(Cl)cc2)SC1=S)NNC(=O)c1ccncc1", "read-out": "IC50", "method": "absorbance", "organism": "Mycobacterium tuberculosis", "target": "Pantothenate synthetase", "value": "3.5 µM"}
{"structure": "CC(C)C[C@H](NC(=O)[C@H](C)NC(=O)C[C@H](O)[C@H](CC(C)C)NC(=O)[C@@H](NC(=O)[C@@H](NC(=O)C(C)O)C(C)C)C(C)C)[C@@H](O)CC(=O)O", "read-out": "IC50", "setting": "pH 4.7", "method": "HPLC", "organism": "HIV-2", "target": "Protease", "value": "0.75 µM"}
{"structure": "CC(=O)N(c1cc(C)on1)S(=O)(=O)c1ccc(N)cc1", "read-out": "IC50", "organism": "Pneumocystis carinii", "target": "DHPS", "value": "0.02 µM"}
{"structure": "O=S(=O)(F)Cc1ccccc1", "read-out": "inhibition", "organism": "Cryptosporidium parvum", "target": "Aminopeptidase", "tested at": "1000 µM", "value": "18%"}
{"structure": "CCOCc1nc(N)nc(N)c1-c1ccc(Cl)c(Cl)c1", "read-out": "IC50", "organism": "Pneumocystis carinii", "target": "DHFR", "value": "12.7 µM"}
{"structure": "CC(N)CB(O)O", "read-out": "IC50", "organism": "Cryptosporidium parvum", "target": "Aminopeptidase", "value": "<0.001 µM"}
{"structure": "O=P(O)(O)C(O)P(=O)(O)O", "read-out": "IC50", "organism": "Human cytomegalovirus", "target": "DNA polymerase", "value": "105 µM"}
{"structure": "CC1(C)N=C(N)N=C(N)N1c1ccc(C(=O)O)cc1", "read-out": "IC50", "organism": "Pneumocystis carinii", "target": "DHFR", "value": ">52 µM"}
{"structure": "O=C(O)c1sc(-c2ccccc2)cc1N(CC1CCNCC1)C(=O)c1ccc(Cl)cc1Cl", "read-out": "IC50", "organism": "Hepatitis C virus", "target": "NS3 ATPase", "value": "<5 µM"}
{"structure": "CC(C)SCCC(C)C1CCC2C3=C(CCC21C)C1(C)CCC(O)CC1CC3", "read-out": "IC50", "organism": "Candida albicans", "target": "C24-methyltransferase", "value": "20 µM"}
{"structure": "Nc1ccc(S(=O)(=O)Nc2cccc(NS(=O)(=O)c3ccc(N)cc3)c2)cc1", "read-out": "IC50", "organism": "Pneumocystis carinii", "target": "DHPS", "value": "0.18 µM"}
{"structure": "NS(=O)(=O)c1ccc(CNc2nnc(NC(=O)/C=C/c3ccccc3Cl)s2)cc1", "read-out": "IC50", "organism": "Human cytomegalovirus", "target": "Polymerase", "value": "<25 µM"}
{"structure": "O=CNc1ccc(S(=O)(=O)c2ccc(NC=O)cc2)cc1", "read-out": "IC50", "organism": "Pneumocystis carinii", "target": "DHPS", "value": ">10 µM"}
{"structure": "O=C(O)C(F)(Br)P(=O)(O)O", "read-out": "inhibition", "organism": "Herpes simplex virus 2", "target": "DNA polymerase", "tested at": "100 µM", "value": "70%"}
{"structure": "O=C(CCN1C(=O)/C(=C/c2ccc3c(c2)OCO3)SC1=S)NNC(=O)c1cccc2ccccc12", "read-out": "IC50", "method": "absorbance", "organism": "Mycobacterium tuberculosis", "target": "Pantothenate synthetase", "value": "1.05 µM"}
{"structure": "CC(=O)c1ccc(-c2cc(N(C(=O)c3ccc(Cl)cc3Cl)C(C)C)c(C(=O)O)s2)s1", "read-out": "IC50", "organism": "Hepatitis C virus", "target": "NS3 ATPase", "value": "<5 µM"}
{"structure": "N=C(N)c1ccc(OCCCCCOc2ccc(C(=N)N)cc2)cc1", "read-out": "IC50", "organism": "Pneumocystis carinii", "target": "Dihydroorotate dehydrogenase", "value": ">10 µM"}
{"structure": "C[C@H](CCC1NC1(C)C)[C@H]1CC[C@@]2(C)C3=C(CC[C@]12C)[C@@]1(C)CC[C@H](O)C(C)(C)[C@@H]1CC3", "read-out": "Ki", "organism": "Candida albicans", "target": "C24-methyltransferase", "value": "0.011 µM"}
{"structure": "CCC(=O)N(Cc1ccc(C(C)(C)C)cc1)c1cc(-c2ccccc2)sc1C(=O)O", "read-out": "IC50", "organism": "Hepatitis C virus", "target": "NS3 ATPase", "value": "5–20 µM"}
{"structure": "O=C(CCN1C(=O)/C(=C/c2ccc(OCc3ccccc3)cc2)SC1=S)NNC(=O)c1cccnc1", "read-out": "IC50", "method": "absorbance", "organism": "Mycobacterium tuberculosis", "target": "Pantothenate synthetase", "value": "0.51 µM"}
{"structure": "CC(=O)NCCNc1nnc(NC(=O)c2cc3ccccc3s2)s1", "read-out": "IC50", "organism": "Human cytomegalovirus", "target": "Polymerase", "value": ">25 µM"}
{"structure": "CC1(C)N=C(N)N=C(N)N1c1cccc(CCCCc2ccc(Cl)c(Cl)c2)c1", "read-out": "IC50", "organism": "Pneumocystis carinii", "target": "DHFR", "value": "0.36 µM"}
{"structure": "CCCCNC(=O)[C@@H](C[C@H](O)[C@H](CC1CCCCC1)NC(=O)[C@@H](CCCC)N1CCN(C(=O)N2CCN(C)CC2)[C@H](Cc2ccccc2)C1=O)C(C)C", "read-out": "IC50", "organism": "Candida albicans", "target": "Secreted aspartic proteinase", "value": "0.025 µM"}
{"structure": "O=C(O)C(Cl)P(=O)(O)O", "read-out": "IC50", "organism": "Epstein-Barr virus", "target": "DNA polymerase", "value": "14.5 µM"}
{"structure": "CCC(CC)[C@H](NC(C)=O)[C@@H]1[C@H](O)[C@@H](C(=O)O)C[C@H]1N=C(N)N", "strain": "WILD TYPE (152)", "read-out": "IC50", "organism": "Influenza A virus", "target": "Influenza virus neuraminidase", "value": "0.0014 µM"}
{"structure": "N#CCc1nc(N)nc(N)c1-c1ccc(Cl)cc1", "read-out": "IC50", "organism": "Pneumocystis carinii", "target": "DHFR", "value": "490 µM"}
{"structure": "CC(CCC=C1CC1)C1CCC2C3=C(CCC21C)C1(C)CCC(O)CC1CC3", "read-out": "Ki", "organism": "Candida albicans", "target": "C24-methyltransferase", "value": "3 µM"}
{"structure": "O=c1nc2oc(-c3ccccc3)cc2cn1[C@H]1C[C@H](O)[C@@H](CO)O1", "strain": "TK+", "read-out": "IC50", "organism": "Varicella zoster virus", "target": "Thymidine kinase", "value": "0.37 µM"}
{"structure": "CC1=CC[C@H]2C(C)(C)CCC[C@]2(C)[C@H]1C/C(OS(=O)(=O)[O-])=C(\\C)CCC/C(C)=C/Cc1cc(O)ccc1O.[Na+]", "strain": "ATCC 10231", "read-out": "IC50", "organism": "Candida albicans", "target": "Isocitrate lyase", "value": "53.5 µg/mL"}
{"structure": "Cc1ccc(-c2cc3cn([C@H]4C[C@H](O)[C@@H](CO)O4)c(=O)nc3o2)cc1", "strain": "TK+", "read-out": "IC50", "organism": "Varicella zoster virus", "target": "Thymidine kinase", "value": "3.1 µM"}
{"structure": "O=C(O)C(F)(Cl)P(=O)(O)O", "read-out": "IC50", "organism": "Herpes simplex virus 2", "target": "DNA polymerase", "value": ">100 µM"}
{"structure": "Cc1nc(N)c2ncn([C@@H]3O[C@H](COC(=O)c4ccc(S(=O)(=O)F)cc4)[C@@H](O)[C@H]3O)c2n1", "read-out": "inhibition", "organism": "West Nile virus", "target": "NTPase/helicase", "tested at": "300 µM", "value": "34%"}
{"structure": "O=C(O)C(F)(F)P(=O)(O)O", "read-out": "inhibition", "organism": "Herpes simplex virus 2", "target": "DNA polymerase", "tested at": "100 µM", "value": "65%"}
{"structure": "CCCCCCCCc1cc2cn([C@H]3C[C@H](O)[C@@H](CO)O3)c(=O)nc2o1", "strain": "TK+", "read-out": "IC50", "organism": "Varicella zoster virus", "target": "Thymidine kinase", "value": "37 µM"}
{"structure": "O=C(O)C(F)P(=O)(O)O", "read-out": "IC50", "organism": "Herpes simplex virus 1", "target": "DNA polymerase", "value": "2.5 µM"}
{"structure": "OB(O)C1CCCN1", "read-out": "IC50", "organism": "Cryptosporidium parvum", "target": "Aminopeptidase", "value": ">0.001 µM"}
{"structure": "O=C(O)c1sc(-c2ccccc2)cc1NS(=O)(=O)c1ccccc1C(F)(F)F", "read-out": "IC50", "organism": "Hepatitis C virus", "target": "NS3 ATPase", "value": ">20 µM"}
{"structure": "Cc1ccc(/C=C/C(=O)N[C@@H](C)c2nc3scc(C)c3c(=O)o2)s1", "read-out": "IC50", "organism": "Cytomegalovirus", "target": "Protease", "value": "0.53 µM"}
{"structure": "CCCCCCCC/C=C/CCCCCCCC(=O)Nc1nnc(NCCCNC2CCCCC2)s1", "read-out": "IC50", "organism": "Human cytomegalovirus", "target": "Polymerase", "value": "<25 µM"}
{"structure": "C[C@@H]1CCC2=C(CCCC2(C)C)[C@@]1(C)CC[C@H](CCCc1ccoc1)COS(=O)(=O)[O-]", "strain": "ATCC 10231", "read-out": "IC50", "organism": "Candida albicans", "target": "Isocitrate lyase", "value": "16.9 µg/mL"}
{"structure": "Cc1noc(NS(=O)(=O)c2ccc(N)cc2)c1C", "read-out": "IC50", "organism": "Pneumocystis carinii", "target": "DHPS", "value": "0.04 µM"}
{"structure": "CC1CCC(C(=O)N(c2cc(-c3cccc([N+](=O)[O-])c3)sc2C(=O)O)C(C)C)CC1", "read-out": "IC50", "organism": "Hepatitis C virus", "target": "NS3 ATPase", "value": "<5 µM"}
{"structure": "CC(C)CC(N)B(O)O", "read-out": "inhibition", "organism": "Cryptosporidium parvum", "target": "Aminopeptidase", "tested at": "0.001 µM", "value": "78%"}
{"structure": "O=C(O)C(Br)(Br)P(=O)(O)O", "read-out": "inhibition", "organism": "Herpes simplex virus 1", "target": "DNA polymerase", "tested at": "100 µM", "value": "4.5%"}
{"structure": "CC(C)C(=O)Nc1ccc(S(=O)(=O)Nc2ccc(N)cc2O)cc1", "read-out": "IC50", "organism": "Pneumocystis carinii", "target": "DHPS", "value": ">10 µM"}
{"structure": "CN1C(=O)[C@]23CC4=CC=C[C@H](O)[C@H]4N2C(=O)[C@@]1(CO)SS3", "strain": "TYPE A21", "read-out": "IC50", "organism": "Coxsackie virus", "target": "RNA polymerase", "value": "0.003 µg/mL"}
{"structure": "CC(Br)(C(=O)O)P(=O)(O)O", "read-out": "inhibition", "organism": "Herpes simplex virus 1", "target": "DNA polymerase", "tested at": "100 µM", "value": "0%"}
{"structure": "COCON1C(=O)[C@H]([C@H](O)c2ccc(OC)cc2)N(Cc2ccc(OC)cc2)[C@@H](CC(C)C)C1=O", "read-out": "IC50", "organism": "Influenza A virus", "target": "Transcriptase", "value": ">200 µM"}
{"structure": "CN(Cc1cnc2nc(N)nc(N)c2n1)c1ccc(C(=O)N[C@@H](CCC(=O)N[C@@H](CCC(=O)N[C@@H](CCC(=O)N[C@@H](CCC(=O)O)C(=O)O)C(=O)O)C(=O)O)C(=O)O)cc1", "read-out": "IC50", "organism": "Pneumocystis carinii", "target": "DHFR", "value": "0.000035 µM"}
{"structure": "Nc1ncnc2c1ncn2[C@@H]1O[C@H](COC(=O)c2ccc(S(=O)(=O)F)cc2)[C@@H](O)[C@H]1O", "read-out": "inhibition", "organism": "Dengue virus", "target": "NTPase/helicase", "tested at": "300 µM", "value": "44%"}
{"structure": "COc1ccc(NS(=O)(=O)c2ccc(N)cc2)nn1", "read-out": "Ki", "organism": "Pneumocystis carinii", "target": "DHPS", "value": "0.0125 µM"}
{"structure": "O=C(CCN1C(=O)/C(=C/c2ccc(Cl)cc2)SC1=S)NNC(=O)c1ccccc1", "read-out": "IC50", "method": "absorbance", "organism": "Mycobacterium tuberculosis", "target": "Pantothenate synthetase", "value": "4.89 µM"}
{"structure": "CC1(C)N=C(N)N=C(N)N1c1ccc2ccccc2c1", "read-out": "IC50", "organism": "Pneumocystis carinii", "target": "DHFR", "value": "0.72 µM"}
{"structure": "COCON1C(=O)/C(=C/c2ccccc2)N(Cc2ccc(OC)cc2)[C@@H](CC(C)C)C1=O", "read-out": "IC50", "organism": "Influenza A virus", "target": "Transcriptase", "value": ">200 µM"}
{"structure": "CCCCNC[C@@H](C[C@H](O)[C@H](CC1CCCCC1)NC(=O)[C@H](CCCC)N1CCN(C(=O)N2CCN(C)CC2)[C@@H](Cc2ccccc2)C1=O)C(C)C", "read-out": "IC50", "organism": "Candida albicans", "target": "Secreted aspartic proteinase", "value": "0.49 µM"}

Repeating the final 6 entries:

| structure | strain | read-out | setting | method | organism | target | tested at | value |
|---|---|---|---|---|---|---|---|---|
| Nc1ncnc2c1ncn2[C@@H]1O[C@H](COC(=O)c2ccc(S(=O)(=O)F)cc2)[C@@H](O)[C@H]1O |  | inhibition |  |  | Dengue virus | NTPase/helicase | 300 µM | 44% |
| COc1ccc(NS(=O)(=O)c2ccc(N)cc2)nn1 |  | Ki |  |  | Pneumocystis carinii | DHPS |  | 0.0125 µM |
| O=C(CCN1C(=O)/C(=C/c2ccc(Cl)cc2)SC1=S)NNC(=O)c1ccccc1 |  | IC50 |  | absorbance | Mycobacterium tuberculosis | Pantothenate synthetase |  | 4.89 µM |
| CC1(C)N=C(N)N=C(N)N1c1ccc2ccccc2c1 |  | IC50 |  |  | Pneumocystis carinii | DHFR |  | 0.72 µM |
| COCON1C(=O)/C(=C/c2ccccc2)N(Cc2ccc(OC)cc2)[C@@H](CC(C)C)C1=O |  | IC50 |  |  | Influenza A virus | Transcriptase |  | >200 µM |
| CCCCNC[C@@H](C[C@H](O)[C@H](CC1CCCCC1)NC(=O)[C@H](CCCC)N1CCN(C(=O)N2CCN(C)CC2)[C@@H](Cc2ccccc2)C1=O)C(C)C |  | IC50 |  |  | Candida albicans | Secreted aspartic proteinase |  | 0.49 µM |

Neighbouring rows are from separate reports. An empty or dashed field is not shown. Two numbers with a dash give a range or band. Percent inhibition refers to the dose given; in toxicity tests it is the harm to the cells.